Results as given in paper PMC6291754 (Frontiers in Microbiology, 2018).

Experiments:
[1] = target: A/Fukui/45/2004 (NA E119V) neuraminidase (NA) (Influenza A virus, UniProt C6ELZ0, E119V); test: fluorescence-based NA inhibition assay (NA-Fluor); assay type: biochemical, influenza A(H3N2) virus; conditions: virus A/Fukui/45/2004 NA E119V; fold-change in IC50 vs median of same subtype
[2] = target: A/Kagoshima/2/2012 (NA R292K) neuraminidase (NA) (Influenza A virus, UniProt J9TKI7, R292K); test: fluorescence-based NA inhibition assay (NA-Fluor); assay type: biochemical, influenza A(H3N2) virus; conditions: virus A/Kagoshima/2/2012 NA R292K; fold-change in IC50 vs median of same subtype

CC(=O)N[C@H]1[C@H]([C@H](O)[C@H](O)CO)OC(C(=O)O)=C[C@@H]1N=C(N)N [Zanamivir, zanamivir]
NA inhibitor susceptibility (WHO criteria) [1]: 0.5 ± 0.1 NI
NA inhibitor susceptibility (WHO criteria) [2]: 10.9 ± 0.8 RI (Reduced inhibition (RI) is defined as a 10- to 100-fold increase in IC50 for influenza A viruses)
